Here are results for 1 sequence from PMC7858070.

By UniProt entry, the sequences of proteins in these tests, tags left out. Where a name states a change or a piece, a line headed by the entry shows the natural chain unless it says otherwise.
UniProt Q9KUH3: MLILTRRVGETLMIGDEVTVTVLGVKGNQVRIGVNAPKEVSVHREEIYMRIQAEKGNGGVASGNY

The exact form of at least one protein or probe is not confirmed.

This data set concerns the target CsrA (UniProt Q9KUH3). The experiment in a line: EMSA. The note with it: initial shift at 375 nM CsrA, shift increases at 500 and 750 nM, reduced by 10- or 50-fold excess unlabeled aphA RNA; LightShift Chemiluminescent RNA EMSA kit conditions, 10 ul volume; 5% nondenaturing PAGE; buffer composition, pH and temperature not stated; recombinant protein; label: 3' biotin; probe letters rebuilt from the primers and the genome.

Regarding “GGGCUCUGUGAUAAGUAAUGUAAAGCAAUCUCACAGUUAAAGUAUGCAAAGACAUACGCCACUCUAGGUGAUAACCGGCUUUAUAAGGUGACAUAAGCAGACGAAUUUUGCGCUGCAGGUAUUUAAAUGCGUUGAUAUGCGUGCCAUUAGAAGCACAACAACCGUUUAGAUAGAGGUUUAUGUUGACUUAAUUUUUGGAUUGAAGACAUGUCAUUACCACACGUUAUCCUUACUGUUCUUAGCACACGCGAUGCAACCGGGUACGAUAUAACCAAAGAGUUUUCUGCUAGCAUUGGCUACUUCUGGAAAGCCAGCCAUCAGCAGGUAUAUCGUGAACUCAAUAAAAUGGGGGAACAGGGUUUAGUGACUUGUGUUCUGGAACCACAGGAAGGCAAACCAGAUCGCAAGGUUUAUUCUAUAACCCAAGCUGGCCGCAGCGC [aphA mRNA probe (+1 to +432)]”, the binding result is “binds”.
